The exact form of at least one protein or probe is not confirmed. For part of these data: Negatives hold for the conditions tested.

The values that follow come from article PMC12121772.

The subject of data set [1] is NSs2 (Recilia dorsalis bunyavirus (RdBV)). Put plainly: EMSA. The settings on record: EMSA: 5x binding buffer printed as 1 M Tris-HCl pH 7.5, 5 M NaCl, 1 M KCl, 1 M MgCl2, 0.5 M EDTA pH 8.0, 10 mg/ml BSA (likely stock concentrations), recombinant protein. Background: A gel shift assay detects complexes by their altered migration in electrophoresis.
The next data set deals with RdMYC (Recilia dorsalis). The data set can be described thus: EMSA. The settings on record: EMSA: 5x binding buffer printed as 1 M Tris-HCl pH 7.5, 5 M NaCl, 1 M KCl, 1 M MgCl2, 0.5 M EDTA pH 8.0, 10 mg/ml BSA (likely stock concentrations); recombinant protein; label: Cy5.

For “TTTGGCGCCCTCTATCTTGTGCGCCCCCGGGCAAAAACCCAGTGTGCCCA (double strand) [P3mutant (CACGTG to CAAAAA)]”, the binding result in data set [1] is given as “no binding”. As for “TTTGGCGCCCTCTATCTTGTGCGCCCCCGGGCACGTGCCCAGTGTGCCCA (double strand) [RdSina promoter P3 probe]”, the binding result (in data set [1] (label: Cy5); with RdMYC (Recilia dorsalis)) was “binds” throughout.
